One molecule from patent US20050202001A1 (priority 2002, published 2005) can be followed below.

One experiment relates to MALME-3M melanoma cells. Put plainly: Melanin content (A405/A280) in MALME-3M melanoma cells. Format: cell-based, human. Conditions: agent alone, 72 hours after treatment, toxins 0.1 μg/ml each, PD98059 20 μM, IBMX 200 μM (FIG. 2B).
The next experiment concerns UACC-257 melanoma cells. Put plainly: Melanin content (A405/A280) in UACC-257 melanoma cells. Conditions: UACC-257, agent alone, 72 hours after treatment; toxins 0.1 μg/ml each, PD98059 20 μM, IBMX 200 μM (FIG. 2A). The experiment is classed as cell-based, human.

On to `COc1cccc(-c2cc(=O)c3ccccc3o2)c1N` [PD98059], for which the melanin production result in the experiment with MALME-3M melanoma cells and in the experiment on UACC-257 melanoma cells was “dramatic increase in melanin production” each time.
